Anti-infective test results gathered from many reports (values: NIAID ChemDB through PubChem).

Common to all: tests in culture; species: Cryptococcus neoformans

A number after MIC or MFC names an inhibition level or a share of isolates. Rows are shuffled and stem from different studies. ECn is the concentration giving n% inhibition of infection, replication or growth. a–b is a range or a potency band. An empty or dashed field is not shown.

CC[C@H]1/C=C(\C)[C@H](O)[C@H](C)C[C@H](OC)[C@H]2O[C@@](O)(C(=O)C(=O)N3CCCC[C@H]3C(=O)O[C@H](/C(C)=C/[C@@H]3CC[C@@H](O)[C@H](OC)C3)[C@H](C)[C@@H](O)CC1=O)[C@H](C)C[C@@H]2OC ; endpoint: MIC ; strain: H99 ΔFRR1 mutant ; result: >42 µg/mL
C[C@@H]1C=C2C3CCC4[C@@]5(C)CC[C@@H](O)C(C)(C)C5CC[C@@]4(C)[C@]3(C)CC[C@@]2(C(=O)O)CC1 ; endpoint: MLC ; method: broth dilution ; strain: ATCC 208821 ; result: >200 µg/mL
C1CCC(C[C@@H]2CN3C(=NC[C@H]3C3CCCCC3)N2CCC23CC4CC(CC(C4)C2)C3)CC1 ; endpoint: EC50 ; strain: ATCC 32045 ; result: 9.9 µg/mL
CC(C)(C)[C@](O)(COc1ccc(Cl)cc1)Cn1cncn1 ; endpoint: MLC90 ; result: >0.08 µg/mL
CC(C)(C)C1CCC(CN2C3=NC[C@H](C4CCCCC4)N3C[C@H]2C2CCCCC2)CC1 ; endpoint: MIC ; strain: ATCC 32045 ; result: 8–16 µg/mL
CCC(C)n1ncn(-c2ccc(N3CCN(c4ccc(OC[C@H]5CO[C@](Cn6cncn6)(c6ccc(Cl)cc6Cl)O5)cc4)CC3)cc2)c1=O ; endpoint: MIC ; result: 0.016–1 µg/mL
C=CC[C@@H]1/C=C(/C)C[C@H](C)C[C@H](OC)[C@H]2O[C@@](O)(C(=O)C(=O)N3CCCC[C@H]3C(=O)O[C@H](/C(C)=C/[C@@H]3CC[C@@H](O)[C@H](OC)C3)[C@H](C)[C@@H](O)CC1=O)[C@H](C)C[C@@H]2OC ; endpoint: MIC ; strain: H99 ΔFRR1 mutant ; result: >25 µg/mL
CCN1C2=NC[C@H](Cc3ccccc3)N2C[C@H]1C1CCCCC1 ; endpoint: MIC ; strain: ATCC 32045 ; result: 62–125 µg/mL
C=C(Cl)/C=C/[C@H](O)CC(=C)C[C@H]1OC2[C@@H](O)[C@]3(O)C[C@@H](O)[C@H](C)[C@H](CCC/C=C\[C@@H]4C[C@@H](O)C[C@]5(C[C@H](OC)CC(CC(=O)[C@@H](C)[C@H](OC(C)=O)[C@@H](C)C(=C)C[C@@H]6C[C@@](C)(O)C[C@]7(C[C@H](OC(C)=O)CC(CC(=O)O[C@@H]([C@@H]1O)[C@H]2C)O7)O6)O5)O4)O3 ; endpoint: MIC ; strain: ATCC90112 ; result: 3.12 µg/mL
COC(=O)Nc1nc2ccccc2[nH]1 ; endpoint: EC50 ; strain: ATCC 14116 ; result: 1.6 µg/mL
CC(C)(C)C1CCC(CN2C3=NC[C@H](Cc4ccccc4)N3C[C@@H]2Cc2ccccc2)CC1 ; endpoint: MIC ; strain: ATCC 32045 ; result: 4–8 µg/mL
O=C(O)c1cc(O)c(O)c(O)c1 ; endpoint: MLC ; method: broth dilution ; strain: ATCC 208821 ; result: 200 µg/mL
COC(=O)Nc1nc2ccc(Sc3ccccc3)cc2[nH]1 ; endpoint: EC50 ; strain: 10 isolates ; result: <0.015 µg/mL
CC(C)(C)C1CCC(CN2C3=NC[C@@H](C4CCCCC4)N3C[C@H]2CC2CCCCC2)CC1 ; endpoint: EC50 ; strain: ATCC 32045 ; result: 4.7 µg/mL
CCCCCOc1ccc(-c2cc(-c3ccc(C(=O)N[C@H]4C[C@@H](O)[C@@H](O)NC(=O)[C@@H]5[C@@H](O)[C@@H](C)CN5C(=O)[C@H]([C@H](O)CC(N)=O)NC(=O)[C@H]([C@H](O)[C@@H](O)c5ccc(O)c(OS(=O)(=O)O)c5)NC(=O)[C@@H]5C[C@@H](O)CN5C(=O)[C@H]([C@@H](C)O)NC4=O)cc3)no2)cc1 ; endpoint: MIC ; result: 4–128 µg/mL
CC(C)(C)C1CCC(CN2C3=NC[C@H](CC4CCCCC4)N3C[C@H]2C2CCCCC2)CC1 ; endpoint: MIC ; strain: ATCC 32045 ; result: 8–16 µg/mL
CC1(C)C=C2C3CCC4[C@@]5(C)CCC(O)C(C)(C)C5CC[C@@]4(C)[C@]3(C)CC[C@@]2(C(=O)O)CC1 ; endpoint: MIC ; method: broth dilution ; strain: ATCC 208821 ; result: >200 µg/mL
COC(=O)Nc1nc2ccc(C(=O)c3cccs3)cc2[nH]1 ; endpoint: EC50 ; strain: IU4 ; result: 0.13 µg/mL
CCN1C2=NC[C@H](C3CCCCC3)N2C[C@@H]1Cc1ccccc1 ; endpoint: EC50 ; strain: ATCC 32045 ; result: 72.2 µg/mL
C[C@H]1[C@H](O)[C@@H](C)/C=C/C=C/C=C/C=C/C=C/C=C/C=C/[C@H](O[C@@H]2O[C@H](C)[C@@H](O)[C@H](N)[C@@H]2O)C[C@@H]2O[C@](O)(C[C@@H](O)C[C@@H](O)CC[C@H](O)[C@@H](O)C[C@@H](O)CC(=O)O[C@H]1C)C[C@H](O)[C@H]2C(=O)O ; endpoint: MIC50 ; result: 0.25–1 µg/mL
CC1(C)C=C2C3CCC4[C@@]5(C)CCC(=O)C(C)(C)C5CC[C@@]4(C)[C@]3(C)CC[C@@]2(C(=O)O)CC1 ; endpoint: MLC ; method: broth dilution ; strain: ATCC 208821 ; result: >200 µg/mL
CC[C@@H]([C@H](C)O)n1ncn(-c2ccc(N3CCN(c4ccc(OC[C@@H]5CO[C@@](Cn6cncn6)(c6ccc(F)cc6F)C5)cc4)CC3)cc2)c1=O ; endpoint: MIC ; result: 0.002–0.25 µg/mL
CO/C1=C\C(C)=C\[C@@H](C)[C@@H](O)[C@@H](C)C/C(C)=C/C=C/[C@H](OC)[C@@H]([C@@H](C)[C@@H](O)[C@H](C)[C@@]2(O)C[C@@H](O)[C@H](C)[C@@H](C(C)C)O2)OC1=O ; endpoint: MIC ; strain: H99 ΔFRR1 mutant ; result: >62.2 µg/mL

Repeating the first 3 entries:

SMILES | endpoint | method | strain | result
CC[C@H]1/C=C(\C)[C@H](O)[C@H](C)C[C@H](OC)[C@H]2O[C@@](O)(C(=O)C(=O)N3CCCC[C@H]3C(=O)O[C@H](/C(C)=C/[C@@H]3CC[C@@H](O)[C@H](OC)C3)[C@H](C)[C@@H](O)CC1=O)[C@H](C)C[C@@H]2OC | MIC | - | H99 ΔFRR1 mutant | >42 µg/mL
C[C@@H]1C=C2C3CCC4[C@@]5(C)CC[C@@H](O)C(C)(C)C5CC[C@@]4(C)[C@]3(C)CC[C@@]2(C(=O)O)CC1 | MLC | broth dilution | ATCC 208821 | >200 µg/mL
C1CCC(C[C@@H]2CN3C(=NC[C@H]3C3CCCCC3)N2CCC23CC4CC(CC(C4)C2)C3)CC1 | EC50 | - | ATCC 32045 | 9.9 µg/mL